# Test results from US6683157B2, “Variant human α7 acetylcholine receptor subunit, and methods of production and use thereof” (priority 1996, dated 2004).
# Target: variant human α7V274T nicotinic acetylcholine receptor (nAChR) (human, UniProt P36544 26-502)
# Assay: radioligand binding to transfected HEK-293 cells
binder,measurement,value
[^125I]α-Bungarotoxin (ligand) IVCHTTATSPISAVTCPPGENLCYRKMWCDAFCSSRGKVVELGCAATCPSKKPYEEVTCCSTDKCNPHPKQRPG,binding result,binds
